Earlier results on 1 substance are cited in article PMC5465072.

Amino acid sequences for entries named in this document (tags omitted). Residues count along the entry.
UniProt Q9H6X2, 33-321: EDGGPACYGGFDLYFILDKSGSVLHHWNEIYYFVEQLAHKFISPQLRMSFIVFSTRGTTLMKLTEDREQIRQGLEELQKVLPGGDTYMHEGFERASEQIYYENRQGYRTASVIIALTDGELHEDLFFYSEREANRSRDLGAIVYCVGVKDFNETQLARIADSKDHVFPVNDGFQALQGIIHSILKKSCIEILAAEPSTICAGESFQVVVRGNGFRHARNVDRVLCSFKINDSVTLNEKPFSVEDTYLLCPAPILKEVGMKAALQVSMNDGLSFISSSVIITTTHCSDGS

Usually Kd stands for a measure of binding affinity in units of concentration.

The data set has as its target TEM8 (Homo sapiens) (UniProt Q9H6X2).

Take PA (from UniProt P13423): the Kd was 1100 nM.
